Assay results from publication PMC4668926 (Biochemistry, 2015).

System: CC(C)(CO)C(=O)C(=O)O
Assay: purified protein
Settings: NADPH 50 µM, 100 mM HEPES pH 7.5, 50 mM NaCl, 25 °C, Hill fit

## KPR (ketopantoate reductase) (Staphylococcus aureus; A181L)
  K0.5: 8100 ± 100 µM
  kcat: 18.2 s⁻¹
